Results of unrelated studies side by side (data: NIAID ChemDB).

Common to all: whole-cell or culture tests; agent: Candida albicans; measure: zone

An empty or dashed field is not shown.

O=c1oc2ccccc2cc1-c1nnc(/N=C/c2ccc(Cl)cc2)o1 ; strain: ATCC 10231 ; read by: agar diffusion ; tested at: 100 µg/mL ; result: 15 mm
O=C1CC(c2ccccc2)CC2=C1C(c1cccc(C3C4=C(CC(c5ccccc5)CC4=O)OC4=C3C(=O)CC(c3ccccc3)C4)c1)C1=C(CC(c3ccccc3)CC1=O)O2 ; strain: ATCC 10231 ; read by: agar diffusion ; tested at: 40 µg/disc ; result: 8 mm
CS(=O)(=O)C1=NC(c2cccc3cc4ccccc4cc23)C(C#N)=C(N)N1 ; strain: MTCC 227 ; read by: agar diffusion ; tested at: 100 µg/mL ; result: 19 mm
Fc1ccc(CSc2nnc(C34CC5CC(CC(C5)C3)C4)n2-c2ccccc2)cc1 ; strain: IFO 0583 ; read by: agar diffusion ; tested at: 200 µg/disc ; result: <10 mm
O=[N+]([O-])c1ccc2nc(/C=C/c3ccc(O)cc3)[nH]c2c1 ; tested at: 25 µg/mL ; result: 10.04 mm
COc1ccc(-c2nn(-c3ccccc3)cc2C2CC(c3ccc(SC)cc3)=NN2c2ccccc2)cc1 ; strain: MTCC 227 ; tested at: 1000 µg/mL ; result: 0 mm
COc1ccccc1N1CCN(CC(=O)N2c3ccccc3Sc3ccccc32)CC1 ; read by: agar diffusion ; tested at: 0.1 µg/mL ; result: 0 mm
COc1ccc(Cc2ccc(OC)c(-c3nnc4sc(Cc5ccc(Cl)cc5)nn34)c2)cc1-c1nnc2sc(Cc3ccc(Cl)cc3)nn12 ; strain: ATCC 10231 ; read by: agar diffusion / agar ; tested at: 100 µg/disc ; result: 16 mm
O=S(=O)(NC(=S)Nc1ccccc1)c1ccc(N2N=C(c3ccc(Br)cc3)CC2c2ccccc2)cc1 ; strain: ATCC 2091 ; tested at: 1000 µg/mL ; result: 26 mm
Cn1c(=O)c(-c2[nH][nH]c(=O)c2C=Nc2ccc(N)cc2)c(O)c2ccccc21 ; strain: ATCC 10231 ; read by: agar diffusion ; tested at: 1 mg/mL ; result: 17 mm
Oc1ccc(/C=C/c2nc3ccc(Cl)cc3[nH]2)cc1 ; tested at: 25 µg/mL ; result: 10.12 mm
CC1(C)CC(=O)C2=C(C1)OC1=C(C(=O)CC(C)(C)C1)C2c1ccc(C2C3=C(CC(C)(C)CC3=O)OC3=C2C(=O)CC(C)(C)C3)cc1 ; strain: ATCC 10231 ; read by: agar diffusion ; tested at: 20 µg/disc ; result: 0 mm
O=C(Cc1nnc2nnc3c(n12)Nc1ccccc1C3)NNC(=S)Nc1ccccc1 ; strain: ATCC 2091 ; tested at: 1000 µg/mL ; result: 26 mm
COc1ccc(-c2nc(S(C)(=O)=O)nc(N)c2C#N)cc1 ; strain: MTCC 227 ; read by: agar diffusion ; tested at: 50 µg/mL ; result: 18 mm
CSc1ccc(C2=NN(c3ccccc3)C(c3cn(-c4ccccc4)nc3-c3ccc(Cl)cc3)C2)cc1 ; strain: MTCC 227 ; tested at: 1000 µg/mL ; result: 3 mm
CC(=NNC(=O)c1snnc1C(F)(F)F)c1ccc(Br)cc1Br ; strain: MTCC 227 ; read by: agar diffusion / agar ; tested at: 150 µg/mL ; result: 15 mm
Nc1[nH]c(=O)nc2nc(-c3ccccn3)c(-c3ccccn3)nc12 ; tested at: 250 mg/mL ; result: 25 mm
COc1ccc(C2=NN(C(N)=S)C(c3cc4c([nH]3)CC(C)(C)CC4=O)C2)cc1 ; strain: ATCC 2091 ; tested at: 1000 µg/mL ; result: 21 mm
CC(=NNC(=O)c1snnc1C(F)(F)F)c1ccccn1 ; strain: MTCC 227 ; read by: agar diffusion / agar ; tested at: 100 µg/mL ; result: 0 mm
CCOC(=O)CSc1nnc(C23CC4CC(CC(C4)C2)C3)n1-c1ccccc1 ; strain: IFO 0583 ; read by: agar diffusion ; tested at: 200 µg/disc ; result: 12 mm
CSC1=NC(c2ccc(O)cc2)C(C#N)=C(N)N1 ; strain: MTCC 227 ; read by: agar diffusion ; tested at: 50 µg/mL ; result: 18 mm
C/C=C/C1=CC2=CC(=O)[C@](C)(OC(=O)c3c(OC)cc(O)c(O)c3C)C(=O)C2=CO1 ; strain: ATCC 64548 ; read by: agar diffusion ; tested at: 50 µg/disc ; result: 0 mm
COc1ccc(C(=O)/C=C/c2cc3c([nH]2)CC(C)(C)CC3=O)cc1 ; strain: ATCC 2091 ; tested at: 1000 µg/mL ; result: 23 mm
CC1(C)CC2C3=CCC4[C@@]5(C)CCC(=O)C(C)(C)C5CC[C@@]4(C)[C@]3(C)C[C@@H](O)[C@@]2(CO)[C@@H](O)C1 ; strain: UPCC 2168 ; read by: agar diffusion ; tested at: 30 mg/disc ; result: 12 mm
O=c1[nH]c(=S)[nH]c2nc(-c3ccccn3)c(-c3ccccn3)nc12 ; tested at: 250 mg/mL ; result: 16 mm
CCOC(=O)N1CCN(Cn2nc(C34CC5CC(CC(C5)C3)C4)n(-c3ccccc3)c2=S)CC1 ; strain: IFO 0583 ; read by: agar diffusion ; tested at: 200 µg/disc ; result: <10 mm
COc1ccc(Cc2ccc(OC)c(-c3nnc4sc(-c5cnccn5)nn34)c2)cc1-c1nnc2sc(-c3cnccn3)nn12 ; strain: ATCC 10231 ; read by: agar diffusion / agar ; tested at: 100 µg/mL ; result: 25 mm
Nc1nc2nc(-c3ccccn3)c(-c3ccccn3)nc2c(=O)[nH]1 ; tested at: 500 mg/mL ; result: 40 mm
O=C1CC(c2ccccc2)CC2=C1C(c1ccc(C3C4=C(CC(c5ccccc5)CC4=O)OC4=C3C(=O)CC(c3ccccc3)C4)cc1)C1=C(CC(c3ccccc3)CC1=O)O2 ; strain: ATCC 10231 ; read by: agar diffusion ; tested at: 40 µg/disc ; result: 8 mm
Clc1ccccc1C(c1ccccc1)(c1ccccc1)n1ccnc1 ; read by: agar diffusion ; tested at: 0.1 µg/mL ; result: 20 mm
NS(=O)(=O)c1ccc(C2C=C(c3ccc(Cl)cc3)C(Br)C2c2ccccc2)cc1 ; strain: ATCC 2091 ; tested at: 1000 µg/mL ; result: >40 mm
O=C(NN=Cc1cccs1)c1snnc1C(F)(F)F ; strain: MTCC 227 ; read by: agar diffusion / agar ; tested at: 100 µg/mL ; result: 0 mm
Clc1nccc2nc(-c3ccccn3)c(-c3ccccn3)nc12 ; tested at: 500 mg/mL ; result: 37 mm
CS(=O)(=O)c1nc(N)c(C#N)c(-c2ccc(Cl)cc2)n1 ; strain: MTCC 227 ; read by: agar diffusion ; tested at: 100 µg/mL ; result: 19 mm
Clc1ccc(C2=NN(c3ccccc3)C(c3cn(-c4ccccc4)nc3-c3ccccc3)C2)c(Cl)c1 ; strain: MTCC 227 ; tested at: 1000 µg/mL ; result: 0 mm
O=C(NN=C1CCCCCC1)c1snnc1C(F)(F)F ; strain: MTCC 227 ; read by: agar diffusion / agar ; tested at: 150 µg/mL ; result: 0 mm
CC1(C)CC(=O)c2cc(C3CC(c4ccc(Cl)cc4)=NO3)[nH]c2C1 ; strain: ATCC 2091 ; tested at: 1000 µg/mL ; result: 23 mm
Cc1ccc(O)c(O)c1O ; tested at: 100 µg/mL ; result: 16 mm
COc1c(N2CC3CCCNC3C2)c(F)cc2c(=O)c(C(=O)[O-])cn(C3CC3)c12.[Cl][Mn+].c1c[nH]cn1 ; read by: agar diffusion ; tested at: 100 µM ; result: 0 mm
O=c1ncc2nc(-c3ccccn3)c(-c3ccccn3)nc2[nH]1 ; tested at: 500 mg/mL ; result: 30 mm
COc1ccc(C2=CC(c3ccc(S(N)(=O)=O)cc3)C(c3ccccc3)C2Br)cc1 ; strain: ATCC 2091 ; tested at: 1000 µg/mL ; result: 23 mm
CC(C)=NNC(=O)c1snnc1C(F)(F)F ; strain: MTCC 227 ; read by: agar diffusion / agar ; tested at: 150 µg/mL ; result: 0 mm
O=[N+]([O-])c1ccc2nc(/C=C/c3ccc(Cl)cc3)[nH]c2c1 ; tested at: 25 µg/mL ; result: 11.26 mm
CS(=O)(=O)c1nc(N)c(C#N)c(-c2cccc([N+](=O)[O-])c2)n1 ; strain: MTCC 227 ; read by: agar diffusion ; tested at: 50 µg/mL ; result: 17 mm
Clc1ccc(-c2nn(-c3ccccc3)cc2C2CC(c3ccc(Cl)cc3Cl)=NN2c2ccccc2)cc1 ; strain: MTCC 227 ; tested at: 1000 µg/mL ; result: 4 mm
COc1ccc(C2CC(=O)C3=C(C2)OC2=C(C(=O)CC(c4ccc(OC)c(OC)c4)C2)C3c2ccc(C3C4=C(CC(c5ccc(OC)c(OC)c5)CC4=O)OC4=C3C(=O)CC(c3ccc(OC)c(OC)c3)C4)cc2)cc1OC ; strain: ATCC 10231 ; read by: agar diffusion ; tested at: 20 µg/disc ; result: 0 mm
C(=N\Nc1nnc2c(n1)Nc1ccccc1C2)/c1ccccc1 ; strain: ATCC 2091 ; tested at: 1000 µg/mL ; result: 24 mm
S=c1n(CN2CCN(c3ccccn3)CC2)nc(C23CC4CC(CC(C4)C2)C3)n1-c1ccccc1 ; strain: IFO 0583 ; read by: agar diffusion ; tested at: 200 µg/disc ; result: 13 mm
O=c1[nH]cnc2nc(-c3ccccn3)c(-c3ccccn3)nc12 ; tested at: 250 mg/mL ; result: 28 mm
COc1ccc(Cc2ccc(OC)c(-c3nnc4sc(-c5ccccc5Cl)nn34)c2)cc1-c1nnc2sc(-c3ccccc3Cl)nn12 ; strain: ATCC 10231 ; read by: agar diffusion / agar ; tested at: 100 µg/disc ; result: 8 mm
Cn1c(=O)c(-c2[nH][nH]c(=O)c2C=Nc2ccccc2)c(O)c2ccccc21 ; strain: ATCC 10231 ; read by: agar diffusion ; tested at: 1 mg/mL ; result: 10 mm
CC(=O)N1CCN(c2ccc(OC[C@H]3CO[C@](Cn4ccnc4)(c4ccc(Cl)cc4Cl)O3)cc2)CC1 ; strain: ATCC 10231 ; read by: agar diffusion ; tested at: 100 µg/mL ; result: 20 mm
O=C(NN=C1CCCCC1)c1snnc1C(F)(F)F ; strain: MTCC 227 ; read by: agar diffusion / agar ; tested at: 150 µg/mL ; result: 7 mm
CN1C(=O)/C(=c2/[nH][nH]c(=O)/c2=C\c2ccc(Cl)cc2)C(=O)c2ccccc21 ; strain: ATCC 10231 ; read by: agar diffusion ; tested at: 1 mg/mL ; result: 8 mm
COc1ccc(C2CC(=O)C3=C(C2)OC2=C(C(=O)CC(c4ccc(OC)c(OC)c4)C2)C3c2cccc(C3C4=C(CC(c5ccc(OC)c(OC)c5)CC4=O)OC4=C3C(=O)CC(c3ccc(OC)c(OC)c3)C4)c2)cc1OC ; strain: ATCC 10231 ; read by: agar diffusion ; tested at: 140 µg/disc ; result: 7 mm
Cn1c(=O)c(-c2[nH][nH]c(=O)c2N=Nc2ccccc2)c(O)c2ccccc21 ; strain: ATCC 10231 ; read by: agar diffusion ; tested at: 1 mg/mL ; result: 10 mm
COc1cccc(/C=N/c2nnc(-c3cc4ccccc4oc3=O)o2)c1 ; strain: ATCC 10231 ; read by: agar diffusion ; tested at: 100 µg/mL ; result: 14 mm
COc1c(N2CC3CCCNC3C2)c(F)cc2c(=O)c(C(=O)[O-])cn(C3CC3)c12.[Cl][Co+].c1c[nH]cn1 ; read by: agar diffusion ; tested at: 100 µM ; result: 15 mm
COc1cccc(/C=c2\c(=O)[nH][nH]\c2=C2/C(=O)c3ccccc3N(C)C2=O)c1 ; strain: ATCC 10231 ; read by: agar diffusion ; tested at: 1 mg/mL ; result: 8 mm

The first 6 rows once more:

SMILES | strain | read by | tested at | result
O=c1oc2ccccc2cc1-c1nnc(/N=C/c2ccc(Cl)cc2)o1 | ATCC 10231 | agar diffusion | 100 µg/mL | 15 mm
O=C1CC(c2ccccc2)CC2=C1C(c1cccc(C3C4=C(CC(c5ccccc5)CC4=O)OC4=C3C(=O)CC(c3ccccc3)C4)c1)C1=C(CC(c3ccccc3)CC1=O)O2 | ATCC 10231 | agar diffusion | 40 µg/disc | 8 mm
CS(=O)(=O)C1=NC(c2cccc3cc4ccccc4cc23)C(C#N)=C(N)N1 | MTCC 227 | agar diffusion | 100 µg/mL | 19 mm
Fc1ccc(CSc2nnc(C34CC5CC(CC(C5)C3)C4)n2-c2ccccc2)cc1 | IFO 0583 | agar diffusion | 200 µg/disc | <10 mm
O=[N+]([O-])c1ccc2nc(/C=C/c3ccc(O)cc3)[nH]c2c1 | - | - | 25 µg/mL | 10.04 mm
COc1ccc(-c2nn(-c3ccccc3)cc2C2CC(c3ccc(SC)cc3)=NN2c2ccccc2)cc1 | MTCC 227 | - | 1000 µg/mL | 0 mm

Zones are inhibition diameters on agar. Rows are shuffled and stem from different studies.